Reference: PubChem BioAssay AID1259414 (Drosophila RNAi Screening Center, 2018)
The screen tested about 24,000 reagents; below is an unselected part of those that have a named target and a result. Over the whole deposit, about 1,210 (5%) are marked active. 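Inactive calls also include excluded dsRNAs with several or no targets, genes unexpressed in JW18, and well A1, regardless of score.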 Reagents against one gene are numbered here. A plus sign joins genes that one reagent is predicted to hit.

Test: 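Host factors increasing or decreasing Wolbachia levels in cultured fly cells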 (primary screen)
System: Drosophila JW18 cells infected with Wolbachia
Reagent: long dsRNA against Drosophila genes, 0.25 µg dsRNA per well of a 384-well plate
Timing: 5 days
Conditions: cells persistently infected with Wolbachia before knock-down; no added drug
Read-out: 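Automated imaging of bacterial rRNA staining divided by host cell count, reported as plate-normalised robust z-score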
Scale: Wolbachia per cell robust z: higher = more Wolbachia per host cell than the plate typical
Call rule: 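Active if absolute robust z reaches 1.5 in two or more of three replicates, leaving out multi- or no-target dsRNAs, genes unexpressed in JW18 and A1 wells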

| gene | reagent no. | Wolbachia per cell robust z, rep 1 | Wolbachia per cell robust z, rep 2 | Wolbachia per cell robust z, rep 3 | call |
| --- | --- | --- | --- | --- | --- |
| Ubc6 (GeneID 40610) | 1 | 0.188 | -0.16 | 0.771 | inactive |
| Ubc6 (GeneID 40610) | 2 | -1.4 | -0.774 | -0.848 | inactive |
| CG42397 (GeneID 8673976) | 1 | 0.093 | -0.467 | 0.309 | inactive |
| l(2)gl (GeneID 33156) | 1 | -1.84 | -0.00291 | 0.732 | inactive |
| l(2)gl (GeneID 33156) | 2 | -1.47 | -1.76 | -1.4 | inactive |
| TfIIFbeta (GeneID 41290) | 1 | -1.88 | 0.911 | 0.857 | inactive |
| TfIIFbeta (GeneID 41290) | 2 | 0.531 | 0.659 | 0.68 | inactive |
| TfIIFbeta (GeneID 41290) | 3 | 0.0799 | -0.708 | 0.763 | inactive |
| CG30109 (GeneID 246461) | 1 | -1.56 | -0.731 | 0.568 | inactive |
| elB (GeneID 34844) | 1 | -1.09 | -0.365 | 0.0899 | inactive |
| Clbn (GeneID 43018) | 1 | 0.198 | 0.256 | -0.127 | inactive |
| defl (GeneID 39141) | 1 | -3.05 | -4.24 | 0.364 | active |
| bwa (GeneID 250736) | 1 | 0.584 | 0.684 | 0.894 | inactive |
| bwa (GeneID 250736) | 2 | -0.49 | -0.214 | -0.135 | inactive |
| CG33914 (GeneID 3772464) | 1 | -0.666 | 0.669 | 1.27 | inactive |
| Alms1a (GeneID 31393) | 1 | 1.16 | -0.936 | 0.924 | inactive |
| CG5001 (GeneID 33308) | 1 | -0.488 | -1.6 | -0.792 | inactive |
| CG5001 (GeneID 33308) | 2 | 0.0564 | 1.21 | -0.81 | inactive |
| CG13585 (GeneID 37918) | 1 | -2.65 | -1.49 | -1.51 | active |
| CG13438 (GeneID 37348) | 1 | 0.402 | -0.065 | 0.781 | inactive |
| Inx5 (GeneID 32901) | 1 | -0.392 | -0.147 | 0.73 | inactive |
| CG2113 (GeneID 38356) | 1 | 0.441 | 0.988 | 0.495 | inactive |
| CG2113 (GeneID 38356) | 2 | -0.622 | 0.713 | -0.694 | inactive |
| CG42269 (GeneID 38689) | 1 | 0.779 | 1.38 | 1.26 | inactive |
| CG42269 (GeneID 38689) | 2 | -0.767 | -0.558 | -0.247 | inactive |
| CG42269 (GeneID 38689) | 3 | -0.373 | 0.488 | -8.5 | inactive |
| CG42269 (GeneID 38689) | 4 | 0.472 | 0.238 | 1.87 | inactive |
| RagC-D (GeneID 35793) | 1 | 0.517 | 0.582 | 0.436 | inactive |
| CG17929 (GeneID 41978) | 1 | -0.0935 | -6.12 | -0.116 | inactive |
| CG34106 (GeneID 4379891) | 1 | -1.59 | -6.7 | 0.798 | inactive |
| nompC (GeneID 33768) | 1 | 0.915 | 0.213 | 0.268 | inactive |
| Mics1 (GeneID 40898) | 1 | 0.673 | 0.513 | -1.08 | inactive |
| FLASH (GeneID 36455) | 1 | 0.527 | -0.947 | -1.18 | inactive |
| FLASH (GeneID 36455) | 2 | -1.02 | 0.874 | -1.66 | inactive |
| CG6933 (GeneID 40214) | 1 | -2.34 | 0.0534 | -0.131 | inactive |
| CG16986 (GeneID 38325) | 1 | -2.28 | -2.12 | -2.97 | inactive |
| Pdk (GeneID 35970) | 1 | -1.07 | -7.4 | 0.532 | inactive |
| Atg5 (GeneID 31666) | 1 | -1.39 | -0.127 | -0.166 | inactive |
| poe (GeneID 46243) | 1 | -0.712 | 0.000568 | -0.699 | inactive |
| poe (GeneID 46243) | 2 | -0.368 | 0.135 | 0.161 | inactive |
| S2P (GeneID 36262) | 1 | 0.191 | 0.308 | 0.746 | inactive |
| S2P (GeneID 36262) | 2 | 1.18 | 0.0323 | -1.37 | inactive |
| Cmtr1 (GeneID 31355) | 1 | 0.255 | 0.945 | 1.18 | inactive |
| Cmtr1 (GeneID 31355) | 2 | 0.854 | 1.61 | -1.46 | inactive |
| Dmtn (GeneID 40792) | 1 | -1.06 | 0.11 | -0.672 | inactive |
| Dmtn (GeneID 40792) | 2 | -0.795 | -0.912 | -1.56 | inactive |
| CG13465 (GeneID 50282) | 1 | -1.03 | -0.0644 | -0.332 | inactive |
| CG3342 (GeneID 31586) | 1 | -4.72 | 0.857 | -0.00468 | inactive |
| CG3342 (GeneID 31586) | 2 | -0.138 | -0.385 | -2.59 | inactive |
| l(2)k01209 (GeneID 36953) | 1 | 0.292 | 0.365 | 0.361 | inactive |
| l(2)k01209 (GeneID 36953) | 2 | -0.581 | -0.782 | -0.112 | inactive |
| holn1 (GeneID 34432) | 1 | -0.311 | -0.41 | 0.106 | inactive |
| holn1 (GeneID 34432) | 2 | 0.673 | 1.48 | 1.16 | inactive |
| CG34298 (GeneID 5740436) | 1 | -5.05 | -5.78 | 0.886 | inactive |
| pgc + T3dh | 1 | 0.16 | -0.258 | 0.295 | inactive |
| CG10570 + CG42502 | 1 | 0.406 | 0.382 | -1.93 | inactive |
| CG10570 + CG42502 | 2 | 0.587 | 0.975 | -0.302 | inactive |
| mRpL11 (GeneID 41757) | 1 | 0.605 | 0.161 | 0.283 | inactive |
| Sprn (GeneID 39344) | 1 | 0.816 | -0.903 | -0.761 | inactive |
| nxf4 (GeneID 40884) | 1 | 0.758 | -0.864 | -0.71 | inactive |
| nxf4 (GeneID 40884) | 2 | -0.196 | -0.752 | -0.0471 | inactive |
| CG31637 (GeneID 33914) | 1 | -0.364 | 0.874 | -1.04 | inactive |
| CG31637 (GeneID 33914) | 2 | 1.74 | 0.612 | 1.58 | active |
| CG31637 (GeneID 33914) | 3 | 0.945 | 0.304 | 0.523 | inactive |
| acj6 (GeneID 47080) | 1 | 0.146 | 0.399 | -0.79 | inactive |
| acj6 (GeneID 47080) | 2 | 0.907 | 0.867 | -0.603 | inactive |
| rg (GeneID 44531) | 1 | 0.746 | -0.175 | 0.21 | inactive |
| rg (GeneID 44531) | 2 | -0.229 | -6.19 | -0.84 | inactive |
| rg (GeneID 44531) | 3 | -0.00314 | 0.415 | 1.31 | inactive |
| rg (GeneID 44531) | 4 | -0.103 | -0.938 | 0.711 | inactive |
| rg (GeneID 44531) | 5 | -0.634 | 0.444 | 0.506 | inactive |
| AkhR (GeneID 33942) | 1 | 1.26 | -2.72 | 0.8 | inactive |
| AkhR (GeneID 33942) | 2 | -1.97 | -0.134 | -0.412 | inactive |
| CG12698 (GeneID 32570) | 1 | 0.0965 | 1.45 | 0.786 | inactive |
| CG12698 (GeneID 32570) | 2 | 0.593 | -0.693 | -0.256 | inactive |
| mib2 (GeneID 35170) | 1 | -8.46 | -8.92 | -7.18 | active |
| CG13807 (GeneID 38290) | 1 | -0.527 | -0.821 | -0.834 | inactive |
| CG13807 (GeneID 38290) | 2 | 0.724 | -0.973 | 1.08 | inactive |
| CG42565 (GeneID 37598) | 1 | -0.24 | -0.975 | 0.781 | inactive |
| CG14073 (GeneID 40046) | 1 | -0.318 | -0.155 | -0.125 | inactive |
| CG14073 (GeneID 40046) | 2 | 0.81 | 0.83 | -0.622 | inactive |
| Mgtor (GeneID 36264) | 1 | -0.636 | 0.304 | 0.924 | inactive |
| IPIP (GeneID 33849) | 1 | 0.472 | 0.463 | -0.516 | inactive |
| IPIP (GeneID 33849) | 2 | 0.65 | -0.273 | 1.44 | inactive |
| CG34238 (GeneID 5740238) | 1 | -1.85 | -1.28 | -0.582 | inactive |
| Sac1 (GeneID 38137) | 1 | 0.636 | -0.081 | -0.281 | inactive |
| Sac1 (GeneID 38137) | 2 | 0.0666 | 0.984 | 0.107 | inactive |

Records above whose target name begins with S or s (5):
| gene | reagent no. | Wolbachia per cell robust z, rep 1 | Wolbachia per cell robust z, rep 2 | Wolbachia per cell robust z, rep 3 | call |
| --- | --- | --- | --- | --- | --- |
| S2P (GeneID 36262) | 1 | 0.191 | 0.308 | 0.746 | inactive |
| S2P (GeneID 36262) | 2 | 1.18 | 0.0323 | -1.37 | inactive |
| Sprn (GeneID 39344) | 1 | 0.816 | -0.903 | -0.761 | inactive |
| Sac1 (GeneID 38137) | 1 | 0.636 | -0.081 | -0.281 | inactive |
| Sac1 (GeneID 38137) | 2 | 0.0666 | 0.984 | 0.107 | inactive |
